In article PMC2913955, “Whole-cell fungal transformation of precursors into dyes” (Microbial Cell Factories, 2010):

Columns and labels:
[1] = tested on: Trametes versicolor (TV7); test: Whole-cell biotransformation in liquid culture, biomass immobilized on PMS; type: cell-based; details: strain TV7 on PMS, 1 mM precursor, 10 times diluted GPA, 48 hours, at product λmax (2,5DABS: sum of 460 and 544 nm)
[2] = tested on: Fomes fomentarius (FF25); test: Consumption of AHBS by immobilized FF25 in different transformation media (MEKC); type: cell-based; details: FF25 on PMS

With `Nc1ccc(N)c(S(=O)(=O)O)c1` [2,5DABS, 2,5-diaminobenzenesulfonic acid] the “Absorbance of product (Abs)” value [1] was 5.40 ± 0.05 Abs.
With `Nc1cc(S(=O)(=O)O)ccc1O` [AHBS, 3-amino-4-hydroxybenzenesulfonic acid] the “Absorbance of product (Abs)” value [1] was 5.94 ± 0.11 Abs, the “yield of AHBS transformation after 24 hours” value ([2]; 1 mM and 5 mM AHBS, systems A-D) was “transformed completely” and the “AHBS present in the reaction mixture after 24 hours of transformation” value ([2]; 5 mM AHBS incubated in Na-tartrate buffer (system A)) was 0.8 mM. The “AHBS concentration transformed during 24 hours” value ([2]; 10 mM AHBS, 100 and 10 times diluted GPA medium (system C and D)) was “More than 50%”.
With `Nc1cccc2c(S(=O)(=O)O)cccc12` [ANS, 5-amino-1-naphthalenesulfonic acid] the “Absorbance of product (Abs)” value [1] was 0.71 ± 0.02 Abs.
For `Nc1ncccc1O` [Precursor 2A3HP, 2-amino-3-hydroxypyridine], the “Absorbance of product (Abs)” value [1] was 4.79 ± 0.18 Abs.
